{
  "sequences": {"note": "Sequences of proteins named here, by UniProt entry; tags and fusion partners are left off. A change or cut given only in a name is not applied to a line headed by its entry.", "UniProt Q9H3N8": "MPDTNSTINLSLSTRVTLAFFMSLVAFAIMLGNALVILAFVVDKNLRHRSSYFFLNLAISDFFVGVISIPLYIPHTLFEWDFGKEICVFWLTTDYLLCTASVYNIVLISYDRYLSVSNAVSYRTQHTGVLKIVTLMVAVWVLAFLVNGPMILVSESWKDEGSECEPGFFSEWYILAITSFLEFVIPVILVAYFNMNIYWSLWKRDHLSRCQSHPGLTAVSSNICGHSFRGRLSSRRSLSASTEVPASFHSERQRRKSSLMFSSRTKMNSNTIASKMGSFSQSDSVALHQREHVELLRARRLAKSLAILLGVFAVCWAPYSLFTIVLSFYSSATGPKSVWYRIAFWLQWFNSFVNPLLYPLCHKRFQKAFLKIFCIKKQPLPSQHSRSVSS"},
  "source": "BindingDB's records for doi:10.1124/mol.59.3.427",
  "about": "(The Centre For Addiction and Mental Health, 2001)",
  "molecular_target": "Histamine H4 receptor (Homo sapiens, UniProt Q9H3N8)",
  "data": [
    {"smiles": "CN(C)CCCN1c2ccccc2Sc2ccc(Cl)cc21", "note": "[[3-(2-Chloro-phenothiazin-10-yl)-propyl]-dimethyl-amine(Chlorpromazine)]", "values": [
      {"measurement": "Ki", "result": 50.2, "unit": "nM"}
    ]}
  ]
}
